Test results reported in US10456414B2, “Methods for treating HCV” (priority 2011, dated 2019).

Test system: HCV genotype 1a replicon
Assay: Antiviral combination studies with Compound 4, MacSynergy II
Details: in combination with Compound 4

| Compound | Interaction |
| --- | --- |
| Fc1ccccc1-c1nc2ccn(Cc3ccc(-c4ccc(C(F)(F)F)cc4C(F)(F)F)nn3)cc-2n1 [Compound 1, 5-((6-(2,4-bis(trifluoromethyl)phenyl)pyridazin-3-yl)methyl)-2-(2-fluorophenyl)-5H-imidazo[4,5-c]pyridine] | Minor synergy (Minor synergy: >25 and ≤50 nM^2%) |
| CC[C@@H]1C[C@]1(NC(=O)[C@@H]1C[C@@H](Oc2cc(-c3csc(NC(C)C)n3)nc3c(Cl)c(OCCN4CCOCC4)ccc23)CN1C(=O)[C@@H](NC(=O)O[C@@H]1C[C@@H]2C[C@@H]2C1)C(C)(C)C)C(=O)O [Compound 3] | Minor synergy (Minor synergy: >25 and ≤50 nM^2%) |
| CC1=CC[C@H](C(=O)N(c2cc(C#CC(C)(C)C)sc2C(=O)O)[C@H]2CC[C@](O)(CO[C@H]3CCOC3)CC2)CC1 [Compound 5, 5-(3,3-dimethylbut-1-yn-1-yl)-3-[(cis-4-hydroxy-4-{[(3S)-tetrahydrofuran-3-yloxy]methyl}cyclohexyl){[(1R)-4-methylcyclohex-3-en-1-yl]carbonyl}amino]thiophene-2-carboxylic acid] | Minor synergy (Minor synergy: >25 and ≤50 nM^2%) |
| NC(=O)c1ncn([C@@H]2O[C@H](CO)[C@@H](O)[C@H]2O)n1 [Ribavirin, 1-β-D-ribofuranosyl-1H-1,2,4-Triazole-3-carboxamide, reference compound] | Minor antagonism (Minor antagonism: ≤−25 and >−50 nM^2%) |
